Assay results published in patent US10940188B2, “Compounds and methods for treatment and prevention of Flavivirus infection” (priority 2016, dated 2021).

System: HEK293 cells
Experiment: Toxicity IC50 (cell-killing activity) of the NS1 TR-FRET screen
Assay type: cell-based, human
Details: ratio of Toxicity IC50 to NS1 IC50

Row | SMILES | Tox IC50/NS1 IC50 ratio
1 | O=C1c2c(O)ccc(O)c2C(=O)c2c(NCCNCCO)ccc(NCCNCCO)c21 [Mitoxantrone] | 215.4
2 | CC(C)C[C@H](NC(=O)CNC(=O)c1cc(Cl)ccc1Cl)B(O)O [MLN-2238] | 9.1
3 | O=c1[nH]c2ccc(Cl)cc2c(N[C@@H]2CN3CCC2CC3)c1-c1nc2ccccc2[nH]1 [CHIR-124] | 8.0
4 | Cn1c2ccccc2c2c3c(c4c5ccccc5n(CCC#N)c4c21)CNC3=O [Go-6976] | 21.4
5 | NCC(=O)Nc1ccc(-n2nc(C(F)(F)F)cc2-c2ccc3c(ccc4ccccc43)c2)cc1 [OSU-03012] | 10.1
6 | C/C=C(/C)C(=O)O[C@H]1C(C)=C2[C@H]([C@@H]1OC(=O)CCCCCCC)[C@@](C)(OC(C)=O)C[C@H](OC(=O)CCC)[C@@]1(O)[C@H]2OC(=O)[C@@]1(C)O [Thapsigargin] | 234.5
7 | CN[C@@H]1C[C@H]2O[C@@](C)([C@@H]1OC)n1c3ccccc3c3c4c(c5c6ccccc6n2c5c31)C(=O)N[C@H]4O [7-Hydroxystaurosporine] | 134.0
8 | O=C(Cc1ccc(-c2ccc(OCCN3CCOCC3)cc2)cn1)NCc1ccccc1 [KX-01] | 40.2
9 | Cc1ccc(C(=O)N(CCCN)[C@@H](c2nc3cc(Cl)ccc3c(=O)n2Cc2ccccc2)C(C)C)cc1 [Ispinesib] | 555.9
10 | CC(C)C[C@H](NC(=O)[C@@H](NC(=O)c1cccc(-c2ccccc2)n1)[C@@H](C)O)B(O)O [Delanzomib] | 5.1
11 | C[C@H]1O[C@@H](O[C@H]2[C@@H](O)C[C@H](O[C@H]3[C@@H](O)C[C@H](O[C@H]4CC[C@@]5(C)[C@H](CC[C@@H]6[C@@H]5C[C@@H](O)[C@]5(C)[C@@H](C7=CC(=O)OC7)CC[C@]65O)C4)O[C@@H]3C)O[C@@H]2C)C[C@H](O)[C@@H]1O [Digoxin] | 394.2
12 | O=c1[nH]c(=O)n([C@H]2C[C@H](O)[C@@H](CO)O2)cc1F [Floxuridine] | 65.4
13 | OCCCNc1cc(-c2ccnc(Nc3cccc(Cl)c3)n2)ccn1 [CGP-60474] | 75.6
